{"source": "patent US8354498B2", "about": "“CD4 mimic peptides and their uses” (Commissariat a l'Energie Atomique, priority 2006, dated 2013)", "key": {"HIV-1 Ba-L": {"test_system": "HIV-1 Ba-L", "assay": "Dendritic cells assay: MO-DC/CD4+ T cell co-cultures, replication competent virus", "type": "cell-based", "method": "Dendritic cell experiments were preformed with the replication-competent CCR5 co-receptor, using non-syncytium inducing, subtype B HIV-1 strain Ba-L whose infectious titer was determined on cultures of PHA/IL-2 stimulated PBMC.\nMonocytes were separated from the buffy-coats of HIV seronegative blood donors by counter-flow elutriation and E-rosetting. They were subsequently differentiated to monocyte-derived dendritic cells (MO-DC) using GM-CSF and IL-4. […] After 30 minutes, 100 μl of MO-DC were added (4×10^5 cells/ml) and incubated for 2 h (37° C., 5% CO2). Afterwards, cells were washed 3 times and autologous CD4+ T cells were added, in the presence of compound. Co-cultures were incubated for 24 h, after which the cells were washed again (3 times) to remove the compound. Cells were incubated during 14 days of primary culture, during which half of the culture medium was refreshed twice weekly, without compound. At day 14, cultures were washed and PHA/IL-2 activated PBMC were added (2×10^5 cells/cup) to detect any latent or subliminal infection during a supplementary 14 days of secondary culture. Culture supernatants of primary (day 7 and day 14) and secondary (day 28) cultures were analyzed for the presence of HIV p24 Ag by a monoclonal p24 antibody (HuMab-HIVp24; BIOMARIC NV) enzyme-linked immunosorbant assay (ELISA).\nImportantly, the replication-competent HIV-1 Ba-L reference strain, was used for these experiments. The virus was shortly pre-incubated with a dilution range of one of the compounds before addition of the MO-DC target cells. The compound remained present during infection and during the first 24 h of the co-culture of the MO-DC with the autologous CD4^+ T cells, but was washed away afterwards."}, "HIV-1 pseudovirus SF162": {"test_system": "HIV-1 pseudovirus SF162", "assay": "HIV single cycle pseudovirus assay in GHOST cells", "type": "cell-based", "method": "For single-cycle infection experiments, HIV pseudoviruses representative of different HIV-1 subtypes were produced by co-transfection of 2×10^5 HEK293 (American Type Culture Collection) derived cells expressing the SV40 T antigen (HEK293 T), using the calcium phosphate method (ProFection® mammalian transfection system; PROMEGA). To this end, 1 μg of an HIV-1 env expressing vector under control of a CMV promoter, derived from pcDNA4/TO backbone vector (INVITROGEN) and 400 ng of the HIV-1 genomic vector (pNL4-3.Luc R^−E^−; National Institutes of Health AIDS Research and Reference Reagent program; catalogue number 3418), under control of the LTR promoter were used. pNL4-3.Luc R^−E^− contains the whole HIV genome, including a packaging signal, but has a frameshift in the env and vpr genes rendering it non-infectious. Furthermore a luciferase reporter gene replaces the nef gene. After 24 h, the medium was replaced with medium containing 1 mM sodium butyrate (SIGMA-ALDRICH) and the cells were further incubated for an additional 24 h. Afterwards, the supernatant with the pseudovirus was harvested, filtered (Millex 0.45 μm filters, MILLIPORE) and after adding Fetal calf serum (FCS; 10%) stored at −80° C. Pseudoviruses of different HIV-1 subtypes were created, including pseudoviruses derived from the subtype B, CCR5 co-receptor using strains Ba-L and SF162; the subtype B, CXCR4 co-receptor using strains Mn; the subtype C, CCR5 co-receptor using strains VI829, VI1358 and MJ4 and the CRF01_AE, CXCR4 co-receptor using strain CA10-3.\nFifty microliters of HIV pseudovirus were pre-incubated with 50 μl of a dilution series of a CD4 miniprotein or reference compound. After 15 minutes, 100 μl of GHOST target cells (AIDS REFERENCE AND REAGENT PROGRAM; 1.2×10^5 cells/ml) expressing CD4 and either of the HIV co-receptors CCR5 or CXCR4 were added to the 96-well cups containing the pre-treated pseudovirus. The GHOST cells were lysed 48 h post-infection by addition of the luciferin substrate (SteadyLite HTS, PERKIN ELMER LIFE SCIENCES). The resulting light signal, expressed as relative lights units (RLU), was quantified in a luminometer (Top Count™, CANBERRA-PACKARD)."}, "gp120": {"test_system": "gp120", "method": "Fluorescence anisotropy was determined after 40 min equilibration time at room temperature, using 485 nm excitation and 530 nm emission filters and an additional 505 nm dichroic filter. All experiments were performed in duplicate.\nFluorescence anisotropy measurements were based on the assessment of the rotational motions of species. Whereas the CD4-mimic tumbles very fast in solution randomizing excited molecules, once it binds to gp120 envelopes, the excited mini-protein stays aligned during the process of emission and as a result, emitted light is polarized."}, "WST-1 cytotoxicity assay": {"assay": "WST-1 cytotoxicity assay", "type": "cell-based", "conditions": "human, ME-180 endocervical cells, ME-180 cells, read-out: cellular toxicity, no toxicity up to concentration", "method": "Cytotoxicity of the compounds was evaluated using an enhanced colorimetric MTT-assay, WST-1, according to the manufacturer's instructions (ROCHE).Target cells were either co-cultures of monocyte-derived dendritic cells and allogeneic CD4^+ T cells or cultures of ME-180 endocervical cells. Briefly, MO-DC/CD4+ T cell co-cultures or ME-180 cells were incubated for respectively 5 days or 24 hours, in the presence of compound. WST-1 reagent was added on the last day of the (co-)culture. Cellular cytotoxicity was quantified 6 h later by analysis in ELISA.\nSince a microbicide will be applied into the vaginal lumen, also the cytotoxicity towards genital epithelial cells is of importance. The ME-180 cell line as was used as a model for the epithelial cells which line the cervix in vivo."}}, "data": [{"smiles": "CC(C)C[C@@H]1NC(=O)CNC(=O)[C@H](CC(C)C)NC(=O)[C@H](CO)NC(=O)[C@H](CCCCN)NC(=O)[C@@H]2CSSC[C@@H](C(=O)N[C@H](C(N)=O)C(C)C)NC(=O)[C@H](C)NC(=O)[C@@H]3CSSC[C@H](NC(=O)[C@H](Cc4ccccc4)NC(=O)[C@H](Cc4c[nH]cn4)NC(=O)[C@H](CC(C)C)NC(=O)[C@H](CC(N)=O)NC(=O)CCSSC[C@H](NC(=O)[C@H](CCCNC(=N)N)NC(=O)CNC(=O)[C@H](CC(C)C)NC1=O)C(=O)N[C@@H](C)C(=O)N1CCC[C@@H]1C(=O)N[C@@H]([C@@H](C)O)C(=O)N[C@@H](Cc1ccccc1)C(=O)N3)C(=O)N[C@@H](CCC(N)=O)C(=O)N[C@@H](CC(C)C)C(=O)N[C@@H](CCCNC(=N)N)C(=O)N2", "note": "[CD4M48]", "values": [{"measurement": "EC50 range after 7 days of primary culture", "setting": "HIV-1 Ba-L; Day 7", "result": "lower μM range"}, {"measurement": "Cmin, secondary culture, Day 28 (minimal concentration blocking infection)", "setting": "HIV-1 Ba-L; confirmed at Day 28", "result": 6.605, "unit": "µM"}, {"measurement": "EC50", "setting": "HIV-1 pseudovirus SF162; pseudovirus SF162, subtype B, R5, read-out: antiviral activity EC50", "result": 5, "unit": "nM"}, {"measurement": "Enhancement of antiviral activity relative to M47 and M33", "setting": "HIV-1 pseudovirus SF162; single-cycle HIV-1 SF162 pseudovirus assay", "result": "approximately 4 fold"}, {"measurement": "Inhibition of CD4M33-F1 binding to gp120 (competitive polarization)", "setting": "gp120", "result": "increased efficiency compared to CD4M33 and sCD4"}, {"measurement": "CC50 at 24 h", "setting": "WST-1 cytotoxicity assay", "result": "> 10", "unit": "µg/mL"}]}]}
